Experimental data reported in article PMC9735679, “Identification and Evolution of a Natural Tetr Protein Based on Molecular Docking and Development of a Fluorescence Polari-Zation Assay for Multi-Detection of 10 Tetracyclines in Milk” (Foods, 2022).

Experiment: Recovery from standard fortified blank milk samples by FPA
Conditions: n = 6

Row | Structure (SMILES) | Inter-Assay Recovery (added 10 ng/g) [%] | Intra-Assay Recovery (added 10 ng/g) [%] | Inter-Assay Recovery (added 100 ng/g) [%] | Intra-Assay Recovery (added 100 ng/g) [%]
1 | CN(C)[C@@H]1C(O)=C(C(N)=O)C(=O)[C@@]2(O)C(O)=C3C(=O)c4c(O)ccc(Cl)c4[C@@](C)(O)[C@H]3C[C@@H]12 [CTC, chlortetracycline] | 81.2 | 78.6 | 87.4 | 81.2
2 | C[C@H]1c2cccc(O)c2C(=O)C2=C(O)[C@]3(O)C(=O)C(C(N)=O)=C(O)[C@@H](N(C)C)[C@@H]3[C@@H](O)[C@@H]21 [DC, doxycycline] | 71.5 | 90.7 | 92.4 | 95.1
3 | CN(C)[C@@H]1C(O)=C(C(N)=O)C(=O)[C@@]2(O)C(O)=C3C(=O)c4c(O)ccc(Cl)c4[C@@H](O)[C@H]3C[C@@H]12 [DMC, demeclocycline] | 79.4 | 77.4 | 84.4 | 86.8
4 | CN(C)c1ccc(O)c2c1C[C@H]1C[C@H]3[C@H](N(C)C)C(O)=C(C(N)=O)C(=O)[C@@]3(O)C(O)=C1C2=O [MC, minocycline] | 73.5 | 85.2 | 86.2 | 93.3
5 | C=C1c2cccc(O)c2C(=O)C2=C(O)[C@]3(O)C(=O)C(C(N)=O)=C(O)[C@@H](N(C)C)[C@@H]3[C@@H](O)[C@H]12 [MTC, Methacycline] | 83.1 | 79.2 | 91.2 | 78.5
6 | CN(C)[C@@H]1C(O)=C(C(N)=O)C(=O)[C@@]2(O)C(O)=C3C(=O)c4c(O)cccc4[C@@](C)(O)[C@H]3[C@H](O)[C@@H]12 [OTC, oxytetracycline] | 75.7 | 91.3 | 79.8 | 86.5
7 | CN(C)[C@@H]1C(O)=C(C(N)=O)C(=O)[C@@]2(O)C(O)=C3C(=O)c4c(O)cccc4C[C@H]3C[C@@H]12 [SC, Sancycline] | 78.2 | 83.4 | 91.2 | 90.5
8 | CN(C)c1cc(NC(=O)CNC(C)(C)C)c(O)c2c1C[C@H]1C[C@H]3[C@H](N(C)C)C(O)=C(C(N)=O)C(=O)[C@@]3(O)C(O)=C1C2=O [TIC, tigecycline] | 76.8 | 85.3 | 84.3 | 84.2
